A mixed list of measured activities; the numbers were collected in NIAID ChemDB.

All rows: enzyme or target tests; organism: HIV-1; protein: Protease; read-out: IC50

Conditions beyond the fields shown may differ between rows. ICn is the concentration giving n% inhibition. An empty or dashed field is not shown.

C=CC(C)(C)c1[nH]c2ccccc2c1C1=C(O)C(=O)C(c2c[nH]c3c(CC=C(C)C)cccc23)=C(O)C1=O ; strain or isolate: WT ; value: ~57 µM
CC(C)[C@H](N)C(=O)N[C@H](C(=O)N[C@@H](Cc1ccccc1)[C@H](O)C(=O)N[C@H](Cc1ccccc1)C(=O)N[C@@H](C(=O)N[C@@H](C(N)=O)C(C)C)C(C)C)C(C)C ; value: ~1000 µM
Cc1cccc(C)c1OCC(=O)N[C@@H](Cc1ccccc1)[C@@H](O)C[C@H](Cc1ccccc1)NC(=O)[C@H](C(C)C)N1CCCOC1=O ; value: <0.0005 µM
C[C@H](CC(=O)C[C@@H](C)[C@H]1C[C@H](O)[C@@]2(C)C3=C(C(=O)C[C@]12C)[C@@]1(C)CCC(=O)C(C)(C)[C@@H]1C[C@@H]3O)C(=O)O ; read by: HPLC ; value: 430 µM
COC(=O)C[C@H](O)[C@H](CC(C)C)NC(=O)[C@H](C)NC(=O)C[C@H](O)[C@H](CC(C)C)NC(=O)[C@@H](NC(=O)[C@H](Cc1ccc(O)cc1)NC(=O)OCc1ccccc1)C(C)C ; read by: fluorescence ; value: 0.6 µM
CC1(C)S[C@H](C(NC(=O)Cc2ccccc2)C(=O)NCCO)N[C@H]1C(=O)NCCNC(=O)[C@@H]1N[C@@H](C(NC(=O)Cc2ccccc2)C(=O)NCc2ccccc2)SC1(C)C ; value: 0.013 µM
C=C(C)[C@@H]1CC[C@]2(C(=O)O)CC[C@]3(C)[C@H](CC[C@@H]4[C@@]5(C)CC[C@H](OC(=O)C(=O)O)C(C)(C)C5CC[C@]43C)[C@@H]12 ; read by: HPLC ; value: 7 µM
CC[C@H](C)[C@H](NC(=O)C[C@H](O)[C@H](CC(C)C)NC(=O)[C@@H](NC(=O)[C@H](Cc1ccc(O)cc1)NC(=O)OCc1ccccc1)C(C)C)C(=O)N[C@@H](Cc1ccccc1)C(=O)OC ; read by: fluorescence ; value: 0.1 µM
C[C@H](CC(=O)C[C@@H](C)[C@H]1CC(=O)[C@@]2(C)C3=C(C(=O)C[C@]12C)[C@@]1(C)CC[C@H](O)C(C)(C)[C@@H]1C[C@@H]3O)C(=O)O ; read by: HPLC ; value: 140 µM
CC(C[C@@H](O)[C@H](O)C(C)(C)O)[C@@H]1CC[C@]2(C)C3=CCC(C(C)(C)C(=O)O)[C@](C)(CC(=O)O)C3CC[C@@]12C ; read by: substrate cleavage / fluorescence ; value: 38.2 µM
COC(=O)[C@]12CCC(C)(C)CC1C1=CCC3[C@@]4(C)CC[C@H](NC(=O)CCCCC(=O)NCCCC(=O)O)C(C)(C)C4CC[C@@]3(C)[C@]1(C)CC2 ; read by: HPLC ; value: 6 µM
Cc1ccc2c(c1)NCCC1(CCN(Cc3ccccc3)CC1)O2 ; read by: absorbance ; value: >10 µM
CSCC[C@H](NC(=O)[C@H](CCO)N(Cc1ccccc1)C(=O)[C@H](CC(C)C)NC(=O)OCC1c2ccccc2-c2ccccc21)C(=O)NC(C)(C)C ; read by: HPLC ; value: 0.17 µM
COC(=O)[C@]12CCC(C)(C)CC1C1=CCC3[C@@]4(C)CC/C(=N\OC(=O)CCCCC(=O)O)C(C)(C)C4CC[C@@]3(C)[C@]1(C)CC2 ; read by: HPLC ; value: 4 µM
CSCC[C@H](NC(=O)[C@H](CCO)NCc1ccccc1)C(=O)NC(C)(C)C ; read by: HPLC ; value: 2.643 µM
CC(C)CC(NC(=O)[C@H](C)NC(=O)C[C@H](O)[C@H](CC(C)C)NC(=O)[C@@H](NC(=O)[C@H](Cc1c[nH]c2ccccc12)NC(=O)OCc1ccccc1)C(C)C)[C@@H](O)CC(=O)O ; read by: fluorescence ; value: 0.04 µM
CC1(C)S[C@H](C(NC(=O)Cc2ccccc2)C(=O)NCC(=O)O)N[C@H]1C(=O)NCCNC(=O)[C@@H]1N[C@@H](C(NC(=O)Cc2ccccc2)C(=O)NCc2ccccc2)SC1(C)C ; value: 0.0037 µM
COC(=O)[C@@H]1CCCN1C(=O)[C@H](O)[C@H](Cc1ccccc1)NC(=O)OC(C)(C)C ; read by: substrate cleavage ; value: >>50 µM
CO[C@@H]([C@@H](CC(C)[C@@H]1CC[C@]2(C)C3=CCC4C(C)(C)C(OC(=O)CC(C)(C)C(=O)O)CC[C@]4(C)C3CC[C@@]12C)OC(C)(C)C)C(C)(C)O ; read by: substrate cleavage / fluorescence ; value: 62.8 µM
CCCC[C@H](NC(=O)[C@H](C)NC(=O)[C@H](CCC(=O)O)NC[C@H](Cc1ccccc1)NC(=O)[C@H](CC(C)C)NC(=O)[C@@H](NC(=O)[C@@H](N)CCCN=C(N)N)C(C)C)C(N)=O ; changes: PR-D30N ; read by: HPLC ; value: >0.075 µM
CC(C)(C)NC(=O)[C@H]1N(C(=O)[C@@H](O)[C@H](Cc2ccccc2)NC(=O)[C@H](CC(N)=O)NC(=O)COc2ccc3ccccc3n2)CSC1(C)C ; value: <0.05 µM
CC1(C)CC2C3=CCC4[C@@]5(C)CC[C@H](O)C(C)(C)C5CC[C@@]4(C)[C@]3(C)CC[C@@]2(C)[C@H](O)C1 ; read by: HPLC ; value: 18.8 µM
CSCC[C@H](NC(=O)[C@H](CCO)N(Cc1ccccc1)C(=O)[C@H](Cc1ccccc1)NC(=O)OCc1ccccc1)C(=O)NC(C)(C)C ; read by: HPLC ; value: 0.62 µM
Cc1cccc(C)c1OCC(=O)N[C@@H](Cc1ccccc1)[C@@H](O)C[C@H](Cc1ccccc1)NC(=O)[C@H](C(C)C)N1CCCN(C)C1=O ; value: <0.0005 µM
CC(C)(C)NC(=O)[C@@H]1Cc2ccccc2N1C(=O)[C@@H](O)[C@H](Cc1ccccc1)NC(=O)[C@H](CC(N)=O)NC(=O)OCc1ccccc1 ; value: >5 µM
COc1ccc2c(c1)OC1(CCN(Cc3ccccc3)CC1)C/C2=N\O ; read by: absorbance ; value: >10 µM
COC(=O)[C@]12CCC(C)(C)C[C@H]1C1=CC[C@@H]3[C@@]4(C)CC/C(=N\O)C(C)(C)[C@@H]4CC[C@@]3(C)[C@]1(C)CC2 ; read by: HPLC ; value: 9.5 µM
CSCC[C@H](NC(=O)[C@H](CCO)N(Cc1ccccc1)Cc1ccccc1)C(=O)NC(C)(C)C ; read by: HPLC ; value: 1.73 µM
O=[N+]([O-])c1ccc2c(c1)/C(=N/O)CC1(CCN(Cc3ccccc3)CC1)O2 ; read by: absorbance ; value: >10 µM
CO[C@@H]([C@@H](CC(C)[C@@H]1CC[C@]2(C)C3=CCC4C(C)(C)C(=O)CC[C@]4(C)C3CC[C@@]12C)OC(C)(C)C)C(C)(C)O ; read by: substrate cleavage / fluorescence ; value: >100 µM
CC(C)(C)NC(=O)[C@H]1N(C(=O)[C@@H](O)[C@H](Cc2ccccc2)NC(=O)[C@H](CS(C)(=O)=O)NC(=O)COc2cccc3ccccc23)CCC1(C)C ; value: <0.05 µM
COC(=O)N[C@H](C(=O)N[C@@H](C)CCC[C@@H](CO)N(C(C)C)S(=O)(=O)c1ccc(N)cc1)C(c1ccccc1)c1ccccc1 ; read by: HPLC ; value: 0.000132 µM
CC(C)(C)NC(=O)[C@@H]1CC2CCCCC2CN1C(=O)[C@@H](O)[C@H](Cc1ccccc1)NC(=O)[C@H](CS(C)(=O)=O)NC(=O)COc1cccc2ccccc12 ; value: >0.05 µM
O/N=C1\CC2(CCN(Cc3ccccc3)CC2)Oc2ccc(OCc3ccccc3)cc21 ; read by: absorbance ; value: >10 µM
CC1(C)S[C@H]([C@H](NC(=O)Cc2ccccn2)C(=O)NCc2ccccc2)N[C@H]1C(=O)NCCNC(=O)[C@@H]1N[C@@H]([C@H](NC(=O)Cc2ccccn2)C(=O)NCc2ccccc2)SC1(C)C ; value: 0.0005 µM
CC(C[C@@H](OC(=O)CC(C)(C)C(=O)O)[C@H](OC(=O)CC(C)(C)C(=O)O)C(C)(C)O)[C@@H]1CC[C@]2(C)C3=CCC4C(C)(C)C(OC(=O)CC(C)(C)C(=O)O)CC[C@]4(C)C3CC[C@@]12C ; read by: substrate cleavage / fluorescence ; value: 45.3 µM
CSCC[C@H](NC(=O)[C@H](CO)N(Cc1ccccc1)C(=O)[C@H](Cc1ccccc1)NC(=O)OCc1ccccc1)C(=O)NC(C)(C)C ; read by: HPLC ; value: 0.37 µM
Cc1cccc(C)c1OCC(=O)N[C@@H](Cc1ccccc1)[C@@H](O)C[C@H](Cc1ccccc1)NC(=O)[C@H](C(C)C)N1C(=O)CCC1=O ; value: <0.0005 µM
COC(=O)C[C@H](O)C(CC(C)C)NC(=O)[C@H](C)NC(=O)CC(O)C(Cc1ccccc1)NC(=O)[C@@H](NC(=O)[C@H](Cc1ccc(O)cc1)NC(=O)OCc1ccccc1)C(C)C ; read by: fluorescence ; value: 0.65 µM
COc1ccc2c(c1)/C(=N/O)CC1(CCN(Cc3ccccc3)CC1)O2 ; read by: absorbance ; value: >10 µM
CC(C)(C)OC(=O)N[C@@H](Cc1ccccc1)C(=O)O ; read by: substrate cleavage ; value: 550 µM
C[C@H](CC(=O)C[C@@H](C)[C@H]1C[C@H](O)[C@@]2(C)C3=C(C(=O)C[C@]12C)[C@@]1(C)CCC(=O)C(C)(C)[C@@H]1CC3)C(=O)O ; read by: HPLC ; value: 70 µM
Cc1ccc2c(c1)/C(=N/O)CC1(CCN(Cc3ccccc3)CC1)O2 ; read by: absorbance ; value: >10 µM
C[C@H](CC(=O)C[C@@H](C)[C@H]1CC(=O)[C@@]2(C)C3=C(C(=O)C[C@]12C)[C@@]1(C)CCC(=O)C(C)(C)[C@@H]1C[C@@H]3O)C(=O)O ; read by: HPLC ; value: 240 µM
CC[C@@H](C)[C@H](NC(=O)[C@@H]1CCCN1C(=O)[C@@H](O)[C@H](CC1CCCCC1)NC(=O)[C@H](Cc1cnc[nH]1)NC(=O)CCc1ccccc1)C(=O)N[C@H](C(N)=O)C(C)C ; value: <5 µM
O/N=C1\CC2(CCN(Cc3ccccc3)CC2)Oc2ccc(F)cc21 ; read by: absorbance ; value: >10 µM
C=C(C)[C@@H]1CC[C@@]2(C)C1C1CCC3[C@@](C)(CC(=O)O)C(C(C)(C)C(=O)O)CC[C@@]3(C)[C@]1(C)C[C@@H]2O ; read by: substrate cleavage / fluorescence ; value: 52.2 µM
CC(C)(C)NC(=O)C1CCCN1C(=O)[C@@H](O)[C@H](Cc1ccccc1)NC(=O)[C@H](CC(N)=O)NC(=O)OC(C)(C)C ; value: >5 µM
O/N=C1\CC2(CCN(Cc3ccccc3)CC2)Oc2ccccc21 ; read by: absorbance ; value: >10 µM
CC(C[C@@H](O)[C@H](O)C(C)(C)O)[C@@H]1CC[C@]2(C)C3=CCC4C(C)(C)C(=O)C(O)=C[C@]4(C)C3CC[C@@]12C ; read by: substrate cleavage / fluorescence ; value: >100 µM
C=C(C)[C@@H]1CC[C@]2(C(=O)O)CC[C@]3(C)[C@H](CC[C@@H]4[C@@]5(C)CC[C@H](OC(=O)CC(=O)O)C(C)(C)C5CC[C@]43C)[C@@H]12 ; read by: HPLC ; value: 6 µM

5 of the rows above, restated:

smiles	strain or isolate	changes	read by	value
CC(C[C@@H](O)[C@H](O)C(C)(C)O)[C@@H]1CC[C@]2(C)C3=CCC4C(C)(C)C(=O)C(O)=C[C@]4(C)C3CC[C@@]12C			substrate cleavage / fluorescence	>100 µM
COC(=O)C[C@H](O)C(CC(C)C)NC(=O)[C@H](C)NC(=O)CC(O)C(Cc1ccccc1)NC(=O)[C@@H](NC(=O)[C@H](Cc1ccc(O)cc1)NC(=O)OCc1ccccc1)C(C)C			fluorescence	0.65 µM
CSCC[C@H](NC(=O)[C@H](CCO)NCc1ccccc1)C(=O)NC(C)(C)C			HPLC	2.643 µM
CC(C[C@@H](O)[C@H](O)C(C)(C)O)[C@@H]1CC[C@]2(C)C3=CCC(C(C)(C)C(=O)O)[C@](C)(CC(=O)O)C3CC[C@@]12C			substrate cleavage / fluorescence	38.2 µM
CC(C)(C)NC(=O)C1CCCN1C(=O)[C@@H](O)[C@H](Cc1ccccc1)NC(=O)[C@H](CC(N)=O)NC(=O)OC(C)(C)C				>5 µM